Assays:
HBV = details: week 3 and week 6 of treatment (weeks 15 and 18 post-infection); 1 mg/kg i.p. twice per week
[1] = system: HBsAg of the 10 HBV genotypes A, B, C, D, E, F, G, H, I, and J; assay: Flow cytometry binding to Hep2 cells transfected with HBsAg genotypes; details: 5 μg/ml; permeabilized transfected Hep2 cells

HBC34: IgG1-type fully human monoclonal antibody against HBsAg antigenic loop; VH SEQ ID NO: 41, VL SEQ ID NO: 42
HBV titer (HBV): decreased
levels of blood circulating HBsAg (HBV): decreased
recognition of the 10 HBV HBsAg genotypes [1]: recognized all 10 HBV HBsAg genotypes
